Measured values from several laboratories, pooled; numbers as filed in NIAID ChemDB.

Shared fields: host cell toxicity; cells: C8166; read-out: CC50

Conditions beyond the fields shown may differ between rows.

structure	method	result
CCCO[C@H]1C[C@H](n2cc(C)c(=O)[nH]c2=O)O[C@@H]1CO	-	>1000 µM
C/C(=C/CC[C@@H](C)[C@H]1CC[C@@]2(C)[C@@H]3CC[C@@H](C(C)(C)O)[C@@]4(CCC(=O)O)C[C@@]34CC[C@]12C)C(=O)O	MTT	60.9 µg/mL
O=C(CCCCc1ccccc1)c1ccc(O)cc1	MTT	15.52 µg/mL
Cc1ccccc1C1CCN(C(=O)c2cc3c([nH]c4ccccc43)c(-c3cccs3)n2)CC1	MTT	>400 µM
N#Cc1ccc2c(c1)c(C=O)cn2S(=O)(=O)c1ccc(Cl)c([N+](=O)[O-])c1	MTT	27.4 µM
O=C(c1cc2c([nH]c3ccccc32)c(-c2cccs2)n1)N1CCC(c2ccc(Cl)cc2)CC1	MTT	>400 µM
C[C@H]1C[C@@]2(OC1=O)O[C@@]13O[C@]4(CC[C@@]5(C)C(=O)[C@H](C)[C@@H]2[C@@H]15)C[C@@]12OC(=O)C[C@@H]1O[C@](C)(CO)[C@H]2CCC4=C3O	MTT	>200 µg/mL
C=C(C)[C@@H]1CC[C@@H]2[C@]3(CC[C@]4(C)[C@@H]([C@H](C)CC/C=C(/C)C(=O)O)CC[C@@]24C)C[C@]13CCC(=O)O	MTT	58.93 µg/mL
CCCCCCCCCCC(=O)O[C@@H]1[C@@H](C)[C@@]2(O)[C@@H](C=C(CO)C[C@]3(O)C(=O)C(C)=C[C@@H]23)[C@@H]2C(C)(C)[C@]12OC(=O)CCCCCCCCCC	MTT	>200 µM
CCCCCCCCCCCC[C@@H]1OC(=O)[C@@H](C)[C@@H]1C(=O)O	MTT	>200 µM
COc1cc2c(c(O)c1OC)-c1c(cc(OC)c(OC)c1O)C[C@H](C)[C@H](C)C2	MTT	123 µM
CCn1cc(C(=O)O)c(=O)c2cc(F)c(N3CCN(c4ccccc4OC)CC3)c(OC(F)F)c21	-	2.6 µM
Cc1ccc(C)c(C(C)S(=O)(=O)c2ccc(C)c[n+]2[O-])c1	-	2.8 µg/mL
Cc1ccc(C)c(NS(=O)(=O)c2cc(C(=O)NCc3ccccn3)ccc2Cl)c1	WST	163 µM
CC(=O)O[C@H]1C[C@]2(C)O[C@]3(COC(=O)C3)[C@@H](OC(=O)c3ccccc3)[C@H](OC(C)=O)[C@]2(C)[C@H]2CCC[C@]3(CO3)[C@]12C	MTT	>200 µg/mL
Cc1cccc2c1cc1n2-c2ccccc2NC1c1ccc(O)cc1	MTT	>200 µg/mL
Cc1ccc2c(C=O)cn(S(=O)(=O)c3ccc(Cl)c([N+](=O)[O-])c3)c2c1	MTT	13.31 µM
CCc1cc(-c2ccc(C)o2)n(-c2ccc3c(c2)nc(-c2ccccc2O)n3Cc2ccc(=O)[nH]c2)n1	MTT	>26 µM
COc1cc2c(c(OC)c1OC)-c1c(cc(O)c(OC)c1O)C[C@@H](C)[C@@H](C)C2	MTT	>200 µg/mL
CC1=C(O[C@H](CC(=O)O)c2ccccc2)C(=O)C(C)(C)C1=O	MTT	>200 µM
COc1cc(O)c(CC=C(C)C)c(O)c1C(=O)/C=C/c1ccc(O)cc1	MTT	21.51 µM
C[C@@H](C(=O)O)[C@@H]1CC[C@]2(C)[C@@H]3CC[C@H]([C@](C)(O)CO)[C@]4(CCC(=O)O4)C[C@@H]3CC[C@@]12C	MTT	>200 µg/mL
COc1c(OC(C)=O)cc2c(c1O)-c1c(cc(O)c(OC)c1OC)C[C@@H](C)[C@@H](C)C2	MTT	>200 µg/mL
CC(=O)N/C=C/c1ccccc1F	MTT	341 µM
CCCCCC(O)/C=C/C=C\CCCCCC[C@@H]1C(=O)O[C@@](O)(CO)[C@H]1O	MTT	>200 µM
Cc1ccc2c(C=O)c[nH]c2c1	MTT	261 µM
CC1=C(O)c2c(oc(-c3ccccc3)cc2=O)C(C)(C)C1=O	MTT	>200 µM
CCOP(=O)(NCCCCC(=O)OC)OC[C@H]1O[C@@H](n2cc(C)c(=O)[nH]c2=O)C[C@@H]1N=[N+]=[N-]	-	>100 µM
CCc1cc(-c2ccc(C)o2)n(-c2ccc3c(c2)nc(-c2ccc(C(N)=O)cc2)n3CC2CC2)n1	MTT	17 µM
CCOP(=O)(NCC(=O)OC)OC[C@H]1O[C@@H](n2cc(C)c(=O)[nH]c2=O)C[C@@H]1N=[N+]=[N-]	-	>100 µM
Oc1ccc(C2Nc3ccccc3-n3c2cc2ccccc23)cc1	MTT	81.19 µg/mL
COc1ccccc1C1CCN(C(=O)c2cc3c([nH]c4ccccc43)c(-c3cccs3)n2)CC1	MTT	>400 µM
CCc1cc(-c2ccc(C)o2)n(-c2ccc3c(c2)nc(-c2cc(C(=O)O)ccc2O)n3Cc2ccc(=O)[nH]c2)n1	MTT	>46 µM
C[C@H](CCC=C(CO)CO)[C@H]1CC[C@@]2(C)C3CC=C4[C@@H](CC[C@H](O)C4(C)C)[C@]3(C)C(=O)C[C@]12C	MTT	327.3 µM
O=Cc1c[nH]c2ccccc12	MTT	890 µM
CC(=O)O[C@H]1C[C@]2(C)O[C@]3(COC(=O)C3)[C@@H](OC(=O)c3ccccc3)C[C@]2(C)[C@H]2[C@H](OC(C)=O)CC[C@]3(CO3)[C@]12C	MTT	>200 µg/mL
CC/C=C\C/C=C\C/C=C\C/C=C\C/C=C\CCCC(=O)OCC1=C[C@H]2[C@@H]3C(C)(C)[C@]3(OC(=O)CCC/C=C\C/C=C\C/C=C\C/C=C\C/C=C\CC)[C@H](OC(=O)CCC/C=C\C/C=C\C/C=C\C/C=C\C/C=C\CC)[C@@H](C)[C@]2(O)[C@@H]2C=C(C)C(=O)[C@@]2(O)C1	MTT	130 µM
CCO[C@H]1c2cc(O)c(OC)c(OC)c2-c2c(cc(O)c(OC)c2OC)C[C@H](C)[C@@H]1C	MTT	>200 µg/mL
C=C1C(=O)O[C@H]2[C@@H]1[C@H](OC(=O)C(C)C)[C@H]1[C@@](C)([C@@H](OC(C)=O)CC[C@]1(C)O)[C@H]2OC(C)=O	absorbance	9.51 µM
O=C(O)[C@H]1O[C@@H](Oc2cc3oc(-c4ccccc4)cc(=O)c3c(O)c2O)[C@H](O)[C@@H](O)[C@@H]1O	MTT	102 µM
CC(=O)O[C@H]1C[C@]2(C)[C@H]3[C@H](OC(=O)c4ccccc4)CC[C@]4(CO4)[C@]3(C)[C@@H](OC(C)=O)C[C@]2(C)O[C@]12COC(=O)C2	MTT	>200 µg/mL
Cc1c2n(c3ccccc13)-c1ccccc1NC2c1ccco1	MTT	182 µg/mL
Cc1ccc(C)c(C(C)S(=O)(=O)c2c(C)ccc[n+]2[O-])c1	-	1.7 µg/mL
COc1ccc(S(=O)(=O)n2cc(C=O)c3ccc(C)cc32)cc1	MTT	197 µM
CCc1cc(-c2ccc(C)o2)n(-c2ccc3c(c2)nc(-c2ccccc2O)n3Cc2ccc(OC)c(O)c2)n1	MTT	>22 µM
Nc1ccn([C@@H]2CC[C@H](CO)O2)c(=O)n1	-	>23.6 µM
CCO[C@H]1C[C@H](n2cc(C)c(=O)[nH]c2=O)O[C@@H]1COP(=O)(OC[C@H]1O[C@@H](n2cc(C)c(=O)[nH]c2=O)C[C@@H]1OCC)OCC(F)(F)F	-	>1000 µM
C=C1C(=O)O[C@H]2[C@@H]1[C@H](OC(=O)C(C)C)[C@@H]1[C@@](C)([C@@H](OC(C)=O)CC[C@]1(C)O)[C@H]2O	absorbance	60.66 µM
CC(=O)CCCCCCCCCCCCC[C@@H]1OC(=O)[C@@H](C)[C@@H]1C(=O)O	MTT	>200 µM
CCCNP(=O)(OCC)OC[C@H]1O[C@@H](n2cc(C)c(=O)[nH]c2=O)C[C@@H]1N=[N+]=[N-]	-	>100 µM
Cc1c2n(c3ccccc13)-c1ccccc1NC2c1ccc(O)cc1	MTT	68.59 µg/mL
Cc1ccc(S(=O)(=O)n2cc(C=O)c3ccc(C)cc32)cc1	MTT	152 µM
CCO[C@H]1C[C@H](n2cc(C)c(=O)[nH]c2=O)O[C@@H]1COP(=O)(OCC(Cl)Cl)OC[C@H]1O[C@@H](n2cc(C)c(=O)[nH]c2=O)C[C@@H]1OCC	-	>1000 µM
N#Cc1ccc2c(c1)cc1n2-c2ccccc2NC1c1ccc([N+](=O)[O-])cc1	MTT	>200 µg/mL
CC(=O)O[C@H]1C[C@H](n2cc(C)c(=O)[nH]c2=O)O[C@@H]1COP(=O)(OC[C@H]1O[C@@H](n2cc(C)c(=O)[nH]c2=O)C[C@@H]1OC(C)=O)OCC(Cl)(Cl)Cl	-	>1000 µM
Cc1ccc(C)c(CS(=O)(=O)c2cccc[n+]2[O-])c1	-	9.8 µg/mL
CCc1cc(-c2ccc(C)o2)n(-c2ccc3c(c2)nc(-c2cc(C(=O)N(C)C)ccc2O)n3Cc2ccc(=O)[nH]c2)n1	MTT	>23 µM
Cc1ccc(C(O)c2cn(C)c(=O)n(C)c2=O)o1	-	800 µM
CCCC(=O)O[C@@]12[C@H](OC(=O)/C=C/c3ccccc3)[C@@H](C)[C@@]3(O)[C@@H](C=C(CO)C[C@]4(O)C(=O)C(C)=C[C@@H]34)[C@@H]1C2(C)C	MTT	32.3 µM
COc1ccc(S(=O)(=O)n2cc(C=O)c3cc(C#N)ccc32)cc1	MTT	151 µM
N#Cc1c(Nc2ccccc2)c(Cl)c2nc(N)nc(N)c2c1F	MTT	8.6 µg/mL
Cc1ccc(C(C)S(=O)(=O)c2c(C)ccc[n+]2[O-])c(C)c1	-	6.9 µg/mL
CN1C(=O)/C(=C/c2ccco2)C(O)N(C)C1=O	-	800 µM
Nc1nc(=O)n([C@H]2CC[C@@H](CO)O2)cc1F	-	>2.2 µM
O=C(O)c1cn(-c2ccccc2)c2ccc(Cc3cccc(Cl)c3F)c(O)c2c1=O	-	0.39 µM
CC1=C[C@@H]([C@H]2Oc3cc4c(c5c3[C@H](CC5)[C@@H]2C)CC[C@H]2C(C)(C)O[C@@H]3CC(=O)O[C@@]32C4)OC1=O	MTT	~160 µg/mL
O=Cc1cn(S(=O)(=O)c2ccc(Cl)c([N+](=O)[O-])c2)c2ccccc12	MTT	12.12 µM
CO[C@H]1C=C2C(C[C@H](O)[C@@H](O)C2(C)C)[C@]2(C)C(=O)C[C@]3(C)C([C@@](C)(O)C(=O)CCC(C)(C)OC(C)=O)[C@H](O)C[C@@]3(C)[C@H]12	MTT	216.7 µM
COc1ccc(S(=O)(=O)n2cc(C=O)c3ccccc32)cc1	MTT	43.48 µM
Cc1ccc2cc3n(c2c1)-c1ccccc1NC3c1ccc([N+](=O)[O-])cc1	MTT	98.29 µg/mL
CO[C@H]1C[C@H](n2cc(C)c(=O)[nH]c2=O)O[C@@H]1COP(=O)(OC[C@H]1O[C@@H](n2cc(C)c(=O)[nH]c2=O)C[C@@H]1OC)OCC(Cl)(Cl)Cl	-	1000 µM
Cc1ccc2cc3n(c2c1)-c1ccccc1NC3c1ccc(O)cc1	MTT	116 µg/mL
COc1ccc([C@]2(OC)O[C@@H](c3cc(OC)c(OC)c(OC)c3)[C@@]3(C)O[C@@]23C)cc1OC	MTT	96.1 µg/mL
CCc1cc(-c2ccc(C(F)(F)F)o2)n(-c2ccc3c(c2)nc(-c2cc(C(=O)N(C)C)ccc2O)n3Cc2ccc(=O)[nH]c2)n1	MTT	>23 µM
C=C[C@]1(C)[C@@H](O)CC2=C(CCC3C(C)(C)[C@@H](O)CC[C@]23C)[C@@H]1O	-	164 µM
Cc1cccc2c1cc1n2-c2ccccc2NC1c1ccccc1O	MTT	90.81 µg/mL
Cc1ccc2c(c1)C1[C@H](C)CC[C@](C)(C(=O)O)[C@@H]1CC2	MTT	>200 µM
C=Cc1c(C)ccc2c1CCC1C(C)(C)[C@@H](O)CC[C@]21C	-	280 µM

Again, the opening 6 rows:

{"structure": "CCCO[C@H]1C[C@H](n2cc(C)c(=O)[nH]c2=O)O[C@@H]1CO", "result": ">1000 µM"}
{"structure": "C/C(=C/CC[C@@H](C)[C@H]1CC[C@@]2(C)[C@@H]3CC[C@@H](C(C)(C)O)[C@@]4(CCC(=O)O)C[C@@]34CC[C@]12C)C(=O)O", "method": "MTT", "result": "60.9 µg/mL"}
{"structure": "O=C(CCCCc1ccccc1)c1ccc(O)cc1", "method": "MTT", "result": "15.52 µg/mL"}
{"structure": "Cc1ccccc1C1CCN(C(=O)c2cc3c([nH]c4ccccc43)c(-c3cccs3)n2)CC1", "method": "MTT", "result": ">400 µM"}
{"structure": "N#Cc1ccc2c(c1)c(C=O)cn2S(=O)(=O)c1ccc(Cl)c([N+](=O)[O-])c1", "method": "MTT", "result": "27.4 µM"}
{"structure": "O=C(c1cc2c([nH]c3ccccc32)c(-c2cccs2)n1)N1CCC(c2ccc(Cl)cc2)CC1", "method": "MTT", "result": ">400 µM"}

Blank or dashed fields: not listed here. CCn: concentration that lowers growth or viability of the cells by n%.